## Share of PSTVd loop 6 variants by leaf site

Reference: Wu et al. 2024, doi:10.1371/journal.ppat.1012142.

Region: loop 6 of PSTVd (intermediate strain), upper and lower strand joined, each 5' to 3', the first 5 letters being the upper strand, closing pairs included. Wild type: UGACCGCGAG. Varied positions (N): UNNNCGNNNG.

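Three N. benthamiana plants were inoculated with the whole mutant pool. Samples came from the inoculated region at 5 days, the leaf margin at 10 and upper systemic leaves at 12.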

Numbers give reads per thousand; 0 = not seen among the reads, higher = more abundant. Each site shows the three plants. "Pool" is the share in the plasmid pool used as inoculum, on the same scale. The inoculated region was read from the minus strand, the other sites from the plus strand. Wild type was 20.7 per thousand in the pool and the most common sequence in every sample (inoculated region 195, 198, 203; leaf margin 629, 591, 734; systemic leaves 942, 870, 868).

sequence,pool,inoculated region,leaf margin,systemic leaves
UUGGCGAACG,0.392,0.122 0.0898 0.129,0 0 0,0.0180 0 0
UUGGCGAAGG,0.183,0.0348 0.162 0.129,0 0 0,0 0 0
UUGGCGAAUG,0.484,0.139 0.0719 0.129,0 0 0.0232,0 0 0
UUGGCGACAG,0.366,0.0521 0.144 0.111,0 0 0,0 0 0
UUGGCGACCG,0.235,0.0695 0.126 0.111,0 0 0,0 0 0
UUGGCGACGG,0.235,0.0521 0.0359 0.0553,0.0276 0 0.0232,0.0180 0 0
UUGGCGACUG,0.562,0.191 0.0719 0.0369,0.0276 0 0,0 0 0
UUGGCGAGAG,0.288,0.0869 0.126 0.0553,0.0276 0 0,0 0 0
UUGGCGAGCG,0.431,0.122 0.144 0.0922,0.0276 0 0,0 0 0
UUGGCGAGGG,0.288,0.122 0.108 0.166,0 0 0,0 0 0
UUGGCGAGUG,0.248,0.156 0.108 0.0369,0 0 0,0 0 0
UUGGCGAUAG,0.366,0.0521 0.144 0.0922,0.0276 0 0.139,0 0 0
UUGGCGAUCG,0.431,0.0695 0.126 0.0922,0 0 0.0232,0 0.0404 0.0205
UUGGCGAUGG,0.340,0.0521 0.0719 0.129,0.0552 0 0,0 0.0202 0.0205
UUGGCGAUUG,0.445,0.139 0.0719 0.0553,0 0 0,0 0 0
UUGGCGCAAG,0.209,0.0695 0.126 0.129,0 0 0,0 0 0
UUGGCGCACG,0.288,0.122 0.0719 0.0922,0.0276 0 0,0 0 0
UUGGCGCAGG,0.209,0.104 0.180 0.0922,0.0276 0 0.0232,0 0 0
UUGGCGCAUG,0.275,0.0695 0.0539 0.0553,0 0 0.0232,0 0 0
UUGGCGCCAG,0.261,0.156 0 0.0922,0 0 0,0 0 0
UUGGCGCCCG,0.431,0.0521 0.0719 0.0922,0 0 0,0 0 0
UUGGCGCCGG,0.301,0.0695 0.0719 0.0738,0 0 0.0232,0 0 0
UUGGCGCCUG,0.523,0.174 0.126 0.0369,0.0276 0 0,0 0 0
UUGGCGCGAG,0.536,0.295 0.413 0.240,0.0276 0 0.0232,0.0898 0.0202 0.205
UUGGCGCGAU,0.0261,0 0.0359 0.129,0.0828 0 0,0 0 0
UUGGCGCGCG,0.353,0.156 0.0898 0.129,0 0 0.0232,0 0 0
UUGGCGCGGG,0.366,0.139 0.0719 0.148,0 0 0.0232,0 0 0
UUGGCGCGUG,0.275,0.104 0.0539 0.0738,0 0 0,0 0 0
UUGGCGCUAG,0.301,0.104 0.126 0.0922,0 0 0.0232,0 0 0
UUGGCGCUCG,0.327,0.122 0.126 0.0922,0 0 0,0 0 0
UUGGCGCUGG,0.288,0.0869 0.108 0.0922,0 0 0,0 0 0
UUGGCGCUUG,0.497,0.0869 0.0719 0.148,0 0 0.0232,0 0 0
UUGGCGGAAG,0.183,0.0521 0.126 0.184,0.0276 0 0.0232,0 0 0
UUGGCGGACG,0.196,0.104 0.144 0.0553,0 0 0,0 0 0
UUGGCGGAGA,0.0131,0 0 0,0 0 0,0 0 0
UUGGCGGAGG,0.314,0.0695 0.0898 0.0553,0 0 0,0 0 0
UUGGCGGAGU,0.0131,0 0 0,0 0 0,0 0 0
UUGGCGGAUG,0.431,0.104 0.0539 0.0922,0 0 0.0464,0 0 0
UUGGCGGCAG,0.379,0.0521 0.0359 0.0922,0 0 0,0 0 0
UUGGCGGCCG,0.523,0.0695 0.0539 0.0553,0 0 0,0 0 0.0205
UUGGCGGCGG,0.327,0.0869 0.0539 0.0369,0 0 0,0 0 0
UUGGCGGCUG,0.392,0.156 0.0898 0.111,0 0 0,0 0 0
UUGGCGGGAG,0.275,0.0869 0.144 0.129,0.0552 0 0,0 0.0808 0.0205
UUGGCGGGCG,0.340,0.0869 0.126 0.0922,0 0 0.0232,0 0 0
UUGGCGGGGA,0.0261,0 0 0,0 0 0,0 0 0
UUGGCGGGGG,0.288,0.0521 0.0539 0.0738,0 0 0,0 0 0
UUGGCGGGUG,0.261,0.139 0.0539 0.0738,0 0 0.0464,0.0180 0 0
UUGGCGGUAG,0.824,0.243 0.234 0.0369,0 0 0,0 0 0.0615
UUGGCGGUCG,0.327,0.0869 0.0539 0.0553,0.0276 0 0,0 0 0.0205
UUGGCGGUGG,0.405,0.156 0.108 0.0738,0 0 0.0232,0 0 0
UUGGCGGUUG,0.353,0.0348 0.0539 0.0922,0 0 0,0 0 0
UUGGCGGUUU,0.0131,0 0 0,0 0 0,0 0 0
UUGGCGUAAG,0.118,0.0695 0.0180 0.0738,0 0 0,0 0 0
UUGGCGUACG,0.405,0.0695 0.0539 0.0553,0.0552 0 0.0232,0 0 0.0205
UUGGCGUAGG,0.431,0.122 0.0898 0.0922,0.0276 0 0,0 0 0
UUGGCGUAUG,0.431,0.209 0.0180 0.0922,0.359 0 0,0 0 0
UUGGCGUCAG,0.392,0.156 0.108 0.0369,0 0 0,0 0 0
UUGGCGUCCG,0.314,0.156 0.108 0.0553,0 0 0,0 0 0.0205
UUGGCGUCGG,0.353,0.122 0.0539 0.0369,0 0 0.0232,0 0 0
UUGGCGUCUG,0.484,0.139 0.0719 0.111,0 0 0.0464,0 0 0
UUGGCGUGAG,0.301,0.122 0.126 0.0738,0 0 0.0232,0 0 0
UUGGCGUGCG,0.340,0.0348 0.0898 0.0738,0 0 0,0 0 0
UUGGCGUGGG,0.301,0.0521 0.0539 0.148,0 0 0,0 0 0
UUGGCGUGUG,0.445,0.174 0.0359 0.0369,0 0 0,0 0 0
UUGGCGUUAG,0.654,0.139 0.144 0.0922,0 0 0,0 0 0
UUGGCGUUCG,0.445,0.122 0.0898 0.129,0 0 0,0 0 0
UUGGCGUUGG,0.392,0.139 0 0.148,0 0 0,0 0 0
UUGGCGUUUG,0.523,0.104 0.0898 0.111,0 0 0.0696,0 0 0
UUGGCUGUCC,0.0131,0 0 0,0 0 0,0 0 0
UUGUAGAUCG,0.0131,0 0 0,0 0 0,0 0 0

The first 5 entries again:

- UUGGCGAACG (pool 0.392) -> inoculated region 0.122 0.0898 0.129; leaf margin 0 0 0; systemic leaves 0.0180 0 0
- UUGGCGAAGG (pool 0.183) -> inoculated region 0.0348 0.162 0.129; leaf margin 0 0 0; systemic leaves 0 0 0
- UUGGCGAAUG (pool 0.484) -> inoculated region 0.139 0.0719 0.129; leaf margin 0 0 0.0232; systemic leaves 0 0 0
- UUGGCGACAG (pool 0.366) -> inoculated region 0.0521 0.144 0.111; leaf margin 0 0 0; systemic leaves 0 0 0
- UUGGCGACCG (pool 0.235) -> inoculated region 0.0695 0.126 0.111; leaf margin 0 0 0; systemic leaves 0 0 0

The authors trace changes outside the varied positions to PCR and sequencing errors or to mutation in the plant; presence does not show that a variant is infectious alone. Samples held 36,220 to 57,551 reads, so the smallest values rest on one or two reads.